Experimental data published in PMC6999076, “Engineered disulfide bonds improve thermostability and activity of L‐isoleucine hydroxylase for efficient 4‐HIL production in Bacillus subtilis 168” (Engineering in Life Sciences, 2019).

Columns and labels:
CC[C@H](C)[C@H](N)C(=O)O = assay: purified protein; details: 20 mM alpha-KG, assay: 1 mM FeSO4, 5 mM ascorbic acid, PBS pH 7.0, 30°C
O=C(O)CCC(=O)C(=O)O = assay: purified protein; details: 20 mM L-Ile, assay: 1 mM FeSO4, 5 mM ascorbic acid, PBS pH 7.0, 30°C
[1] = printed Km disagrees with printed kcat/Km, possible misprint
[2] = engineered disulfide C181-C226, text b43 prints a different kcat (0.14 s^-1)

Substance | Km (CC[C@H](C)[C@H](N)C(=O)O; [1]) [µM] | kcat (CC[C@H](C)[C@H](N)C(=O)O; [1]) [s⁻¹] | Km (O=C(O)CCC(=O)C(=O)O; [1]) [µM] | kcat (O=C(O)CCC(=O)C(=O)O; [1]) [s⁻¹] | Km (CC[C@H](C)[C@H](N)C(=O)O; engineered disulfide C181-C226) [µM] | kcat (CC[C@H](C)[C@H](N)C(=O)O; engineered disulfide C181-C226) [s⁻¹] | kcat/Km (CC[C@H](C)[C@H](N)C(=O)O; engineered disulfide C181-C226) [M⁻¹ s⁻¹] | Km (O=C(O)CCC(=O)C(=O)O; [2]) [µM] | kcat (O=C(O)CCC(=O)C(=O)O; [2]) [s⁻¹] | kcat/Km (O=C(O)CCC(=O)C(=O)O; [2]) [M⁻¹ s⁻¹]
L-isoleucine hydroxylase (IDO) (Bacillus cereus ATCC 14579; K157C) | 900 | 0.83 | 900 | 0.14 | – | – | – | – | – | –
L-isoleucine hydroxylase (IDO) (Bacillus cereus ATCC 14579; T186C) | – | – | – | – | 380 | 0.92 | 3590 | 2170 | 0.47 | 220
